Pooled drug test results. Numbers come from NIAID ChemDB, via PubChem.

Shared fields: tests in culture; organism: Hepatitis C virus; endpoint: EC50

Rows are shuffled and stem from different studies. An empty or dashed field is not shown. Two numbers with a dash give a range or band. ECn: concentration that inhibits the pathogen or its effect by n%.

structure,strain,method,result
CC(=O)N1c2cccc(O)c2NC2=C(C(=O)CC(C)(C)C2)C1Cc1ccc(Cl)cc1Cl,1b,luciferase / reporter gene / replicon,12.89 µM
O=C(NS(=O)(=O)C1CC1)c1c(-c2ccc[nH]c2=O)c2c3c(ccc2n1Cc1cc(F)ccc1F)CCO3,-,replicon,<0.5 µM
Cc1ccnc(C(=O)N2c3cccc(O)c3NC3=C(C(=O)CC(C)(C)C3)[C@@H]2c2ccc(OCc3ccccc3)cc2F)c1,1b,luciferase / reporter gene / replicon,0.78 µM
CCN(C(=O)C1CCC(C)CC1)c1cc(-c2ccc(NC(=O)c3cscn3)cc2)sc1C(=O)O,1b,replicon,<0.5 µM
CC(=O)N1c2cccc(O)c2NC2=C(C(=O)CC(C)(C)C2)C1c1ccc(Oc2ccccc2Br)s1,1b,luciferase / reporter gene / replicon,2.86 µM
N#Cc1ccc(-c2ccc3nc(NCc4ccc(S(N)(=O)=O)cc4)nc(NCC(F)(F)F)c3n2)cc1,-,replicon,<0.1 µM
CN(C)S(=O)(=O)NC(=O)c1c(-c2ccc[nH]c2=O)c2c3occc3c(F)cc2n1Cc1cc2ccccc2nc1Cl,-,replicon,<0.5 µM
CC1CCC(C(=O)N(c2cc(-c3ccc(NC(=O)c4ccns4)cc3)sc2C(=O)O)C(C)C)CC1,1a,replicon,>0.5 µM
NC(=O)COc1ccc2c(c1)S(=O)(=O)N=C(c1c(O)c3cc(F)ccc3n(CCC3CC3)c1=O)N2,1a 33779,replicon,0.45 µM
CC1CCC(C(=O)N(CC2CC2)c2cc(-c3ccc(NC(=O)c4ccccn4)cc3)sc2C(=O)O)CC1,1a,replicon,<0.5 µM
NS(=O)(=O)c1ccc(CNc2nc(NCC(F)(F)F)c3nc(-c4ccc(NC(=O)C5(O)CC5)cc4)ccc3n2)cc1,-,replicon,<0.1 µM
CC(=O)N1c2cccc(O)c2NC2=C(C(=O)CC(C)(C)C2)C1c1ccc(C#N)cc1Cl,1b,luciferase / reporter gene / replicon,32.41 µM
CC1CCC(C(=O)N(c2cc(-c3ccc(NC(=O)c4ccccn4)nc3)sc2C(=O)O)C(C)C)CC1,1a,replicon,<<0.5 µM
O=C(O)c1c(-c2ccc[nH]c2=O)c2c3c(ccc2n1Cc1cc(F)ccc1F)OCCO3,-,replicon,<1 µM
CC1CCC(C(=O)N(c2cc(-c3ccc(NC(=O)c4ccn[nH]4)cc3)sc2C(=O)O)C(C)C)CC1,1a,replicon,<0.5 µM
Fc1ccc(CNc2nc(NCc3cccnc3)c3nc(-c4ccc(F)cc4)ccc3n2)cc1,-,replicon,<0.1 µM
Cc1cccc(C(=O)N2c3cccc(O)c3NC3=C(C(=O)CC(C)(C)C3)C2c2ccc(OCc3ccccc3)c(F)c2)n1,1b,luciferase / reporter gene / replicon,1.03 µM
CCOc1nc(NCc2cccnc2)nc2ccc(-c3ccc(F)cc3)nc12,-,replicon,<0.1 µM
CC1(C)CC(=O)C2=C(C1)Nc1c(O)cccc1N(C(=O)CCC(=O)NCc1cccs1)C2c1ccc(OCc2ccccc2)cc1Cl,1b,luciferase / reporter gene / replicon,10.33 µM
COC(=O)c1cccc(Cn2c(C(=O)NS(C)(=O)=O)c(-c3ccc[nH]c3=O)c3c4ccccc4ccc32)c1,-,replicon,1–10 µM
CN1CC[C@H](C(=O)Nc2ccc(-c3ccc4nc(NCc5ccc(S(N)(=O)=O)cc5)nc(NCC(F)(F)F)c4n3)cc2F)C1,-,replicon,<0.1 µM
CC1(C)CC(=O)C2=C(C1)Nc1c(O)cccc1N(C(=O)CCC(=O)N1CCC3(CC1)OCCO3)C2c1ccc(OCc2ccccc2)cc1Cl,1b,luciferase / reporter gene / replicon,7.15 µM
CS(=O)(=O)Nc1cccc(S(=O)(=O)NC(=O)c2c(-c3ccc[nH]c3=O)c3c4ccccc4ccc3n2Cc2ccc(F)cc2F)c1,-,replicon,<1 µM
CC(=O)c1ccc(C2C3=C(CC(C)(C)CC3=O)Nc3c(O)cccc3N2C(C)=O)cc1,1b,luciferase / reporter gene / replicon,>100 µM
CS(=O)(=O)NC(=O)c1c(-c2ccc[nH]c2=O)c2c3ccccc3ccc2n1Cc1cccc(C(=O)O)c1,-,replicon,>10 µM

4 of the rows above, restated:

structure	strain	method	result
CC1CCC(C(=O)N(c2cc(-c3ccc(NC(=O)c4ccns4)cc3)sc2C(=O)O)C(C)C)CC1	1a	replicon	>0.5 µM
N#Cc1ccc(-c2ccc3nc(NCc4ccc(S(N)(=O)=O)cc4)nc(NCC(F)(F)F)c3n2)cc1	-	replicon	<0.1 µM
CC(=O)N1c2cccc(O)c2NC2=C(C(=O)CC(C)(C)C2)C1c1ccc(C#N)cc1Cl	1b	luciferase / reporter gene / replicon	32.41 µM
O=C(NS(=O)(=O)C1CC1)c1c(-c2ccc[nH]c2=O)c2c3c(ccc2n1Cc1cc(F)ccc1F)CCO3	-	replicon	<0.5 µM